Pooled drug test results. Numbers come from NIAID ChemDB, via PubChem.

ICn is the concentration giving n% inhibition.

| SMILES | agent | test | protein | endpoint | dose | strain or isolate | method | value |
|---|---|---|---|---|---|---|---|---|
| CC(C)c1ccc(CNc2cc(N)ccc2O)cc1.Cl | Mycobacterium tuberculosis | culture | - | MIC | - | H37Rv | - | >100 µg/mL |
| Fc1ccc(N2CCCCC2)c(NC(=S)c2ccncc2)c1 | - | host protein | cKit (V654A) | inhibition | 10 µM | - | kinase activity | 0% |
| Clc1cccc(N2CCN(c3cncc(-c4ccsc4)n3)CC2)c1 | Cytomegalovirus | target | UL97 kinase | inhibition | 10 µM | - | - | >15% |
| CCOC(=O)c1csc(CCCOc2ccccc2)c1N.Cl | Mycobacterium tuberculosis | culture | - | MIC | - | H37Rv | - | 50 µg/mL |
| FC(F)(F)c1cccc(N2CCN(c3cncc(-c4ccccc4Oc4ccccc4)n3)CC2)c1 | Cytomegalovirus | target | UL97 kinase | IC50 | - | - | - | <100 µM |
| O=C1C(=O)c2ccc3c(c2-c2cc4c(cc21)OCO4)OCO3 | Mycobacterium tuberculosis | culture | - | inhibition | 6.25 µg/mL | H37Rv | resazurin | 10% |
| CCOC(=O)N(CC)N=O | Mycobacterium tuberculosis | culture | - | MIC | - | H37Rv | - | >100 µg/mL |
| NC(=O)c1ccc(-c2cncc(N3CCN(C(=O)c4ccco4)CC3)n2)cc1 | Cytomegalovirus | target | UL97 kinase | IC50 | - | - | - | <1 µM |
| Cc1cc(Cl)ccc1NC(=O)C(=O)Cc1occc(=O)c1O | Mycobacterium tuberculosis | culture | - | inhibition | 6.25 µg/mL | H37Rv | resazurin | -6% |
| COc1cc([N+](=O)[O-])ccc1NC(=O)C(C)Oc1ccc(C(C)(C)C)cc1 | Mycobacterium tuberculosis | culture | - | MIC | - | H37Rv | - | >100 µg/mL |
| Cc1cc(C)cc(-c2cncc(N3CCN(c4cccc(C)c4C)CC3)n2)c1 | Cytomegalovirus | target | UL97 kinase | IC50 | - | - | - | <100 µM |
| O=C(CC1(O)C(=O)Nc2ccccc21)c1c[nH]c2ccccc12 | Mycobacterium tuberculosis | culture | - | inhibition | 6.25 µg/mL | H37Rv | BACTEC | 0% |
| Cl.O=C(O)CNc1cccc2c(O)cccc12 | Mycobacterium tuberculosis | culture | - | MIC | - | H37Rv | - | >100 µg/mL |
| Cc1ccc2c(c1)P(=O)(c1ccccc1C(O)(C(F)(F)F)C(F)(F)F)c1cc(C)ccc1O2 | Mycobacterium tuberculosis | culture | - | inhibition | 12.5 µg/mL | H37Rv | BACTEC | 0% |
| Clc1cccc(-c2cncc(N3CCN(c4ccccn4)CC3)n2)c1 | Cytomegalovirus | target | UL97 kinase | inhibition | 1 µM | - | - | <50% |
| N#C/C(=C\c1ccc([N+](=O)[O-])o1)c1ccccc1 | Mycobacterium tuberculosis | culture | - | MIC | - | H37Rv | BACTEC | ≥12.5 µg/mL |
| Br.CCN(CC)CCCOc1ccccc1 | Mycobacterium tuberculosis | culture | - | MIC | - | H37Rv | - | 250 µg/mL |
| O=c1c(O)c(-c2cc(O)c(O)c(O)c2)oc2cc(O)cc(O)c12 | Mycobacterium tuberculosis | culture | - | inhibition | 12.5 µg/mL | H37Rv | BACTEC | 28% |
| Cc1cccc(-c2cncc(N3CCN(c4ccccc4F)CC3)n2)c1C | Cytomegalovirus | target | UL97 kinase | inhibition | 10 µM | - | - | >15% |
| CCN(CC)/N=N/c1nc[nH]c1C(N)=O | Mycobacterium tuberculosis | culture | - | MIC | - | H37Rv | BACTEC | ≥12.5 µg/mL |
| CNc1ccc(C(=O)c2ccccc2C(=O)O)cc1[N+](=O)[O-] | Mycobacterium tuberculosis | culture | - | MIC | - | H37Rv | - | >100 µg/mL |

Repeating the first 2 entries:

SMILES,agent,test,protein,endpoint,dose,strain or isolate,method,value
CC(C)c1ccc(CNc2cc(N)ccc2O)cc1.Cl,Mycobacterium tuberculosis,culture,-,MIC,-,H37Rv,-,>100 µg/mL
Fc1ccc(N2CCCCC2)c(NC(=S)c2ccncc2)c1,-,host protein,cKit (V654A),inhibition,10 µM,-,kinase activity,0%

Percent inhibition refers to the dose given; in toxicity tests it is the harm to the cells. Conditions beyond the fields shown may differ between rows. An empty or dashed field is not shown.